Pooled drug test results. Numbers come from NIAID ChemDB, via PubChem.

Common to all: whole-cell or culture tests; organism: Mycobacterium tuberculosis

Percent inhibition refers to the dose given; in toxicity tests it is the harm to the cells. ECn: concentration that inhibits the pathogen or its effect by n%. An empty or dashed field is not shown. Rows are shuffled and stem from different studies. MIC50, MIC90 and the like: level of inhibition, or share of isolates inhibited. MIC bound comes from a single tested concentration.

smiles | dose | measure | mutations | method | strain | value
CNn1cc(C(=O)O)c(=O)c2cc(F)c(N3CCN(C)CC3)cc21 |  | MIC90 |  |  | 19 strains | 12.5 µg/mL
O=C1OC2C3C=CC(O3)C2O1 | 12.5 µg/mL | inhibition |  | BACTEC | H37Rv | 0%
COC(=O)c1ccc(Br)cc1S(=O)(=O)NC(=O)Nc1nccc(C)n1 |  | MIC |  |  | H37Rv | 40 µg/mL
OO |  | EC50 |  |  | H19 | >0.0005 µM
CSc1ccccc1NC(=O)C1(c2cccs2)CCOCC1 |  | EC50 |  | turbidity | CDC1551 | 200 µM
CCN(CC)CCNc1cc2c(c3c(=O)c4ccccc4sc13)CCCC2 |  | MIC |  |  | H37Rv | 6.25 µg/mL
Cc1ccc2nc3n(c(=O)c2c1)-c1ccccc1C3=O |  | MIC |  |  | H37Rv | 1 µg/mL
Cc1ccnc(NC(=O)NS(=O)(=O)c2cc(C(N)=O)ccc2Br)n1 |  | MIC |  |  | H37Rv | >80 µg/mL
O=C(/N=C/c1ccc(Br)cc1)NCCCN1c2ccccc2Sc2ccccc21 | 50 µg/mL | inhibition |  | agar | H37Rv | 40%
Cc1c(C)c([N+](=O)[O-])c2c(c1N)C(=O)c1ccccc1C2=O |  | MIC bound |  | BACTEC | H37Rv | >12.5 µg/mL
O=C1c2cc(F)ccc2-n2c1nc1ncccc1c2=O |  | MIC |  |  | H37Rv | <0.5 µg/mL
Cc1[nH]nc(C(=O)NN)c1[N+](=O)[O-] | 12.5 µg/mL | inhibition |  | BACTEC | H37Rv | 8%
CCCCCCCC[N+]1(CCOC(=O)Nc2ccccc2OCCCCC)CCCCC1 |  | MIC |  |  | My 331/88 | 8 µM
Cc1cn2c(C(=O)NCc3ccc(N4CCC(c5ccc(OC(F)(F)F)cc5)CC4)cc3)c(C)nc2s1 |  | MIC | QcrB1 A317V | resazurin / fluorescence | H37Rv | 0.2 µM
CCCCN(CCCC)c1ccc(C(=O)C2CC2c2ccc(Cl)cc2)cc1 |  | MIC |  | broth dilution / agar | H37Rv | >12.5 µg/mL
Cc1ccc(NC(=O)c2cnc(C(C)(C)C)cn2)cc1I |  | MIC |  |  | H37Rv | 8 µg/mL
O=C1c2cccc(F)c2-n2c1nc1ccccc1c2=O |  | MIC |  |  | MDR 10038 | 1 µg/mL
CCCCNC(=S)S |  | MIC bound |  | BACTEC | H37Rv | >12.5 µg/mL
CN1CCN(c2cc3c(cc2F)c(=O)c(C(=O)O)cn3-c2ccc(F)cc2)CC1 |  | MIC90 |  |  | 27 strains | 8 µg/mL
Cc1ccc(C2CC(c3ccccc3)=NN2C(=O)c2ccc(O)cc2)cc1 |  | MBC |  | visual reading | H37Ra | 562 µM
O=C1CN=C(c2ccccn2)c2cc(Cl)ccc2N1CCO | 12.5 µg/mL | inhibition |  | BACTEC | H37Rv | 12%
O=C(Nc1cccc(F)c1)C1(c2cccs2)CCOCC1 |  | EC50 |  | turbidity | CDC1551 | 200 µM
C=C/C=C/CC1=C(C)[C@@H](OC(=O)[C@@H]2[C@@H](/C=C(\C)C(=O)OC)C2(C)C)CC1=O |  | MIC |  |  | H37Rv | 32 µg/mL
O=C([O-])c1cccc2nc3cc4c(c(C(=O)[O-])c3nc12)OCO4.[Na+].[Na+] |  | MIC bound |  | BACTEC | H37Rv | >12.5 µg/mL
O=c1nc(N2CC(=NOCc3ccccc3)C2)sc2c([N+](=O)[O-])cc(C(F)(F)F)cc12 |  | MIC90 |  | resazurin | H37Rv | <0.016 µg/mL
CN1CCN(c2cccc3c2C(=O)c2nc4ccccc4c(=O)n2-3)CC1 |  | MIC |  |  | H37Rv | >5 µg/mL
O=C(Nc1ccc(C(F)(F)F)cc1)c1cncc(Cl)n1 |  | MIC |  |  | H37Rv | 8 µg/mL
CCCCCCOc1ccccc1NC(=O)OCC[N+]1(CCC)CCCCC1 |  | MIC |  |  | My 331/88 | 16 µM
C/C=C/c1ccc2oc(-c3ccc(OC)c(OC)c3)c(C)c2c1 |  | MIC |  | resazurin / absorbance | H37Rv | 3.9 µg/mL
NNC(=O)C1COc2ccccc2O1 |  | MIC bound |  | BACTEC | H37Rv | >12.5 µg/mL
C/C=C/c1ccc2oc(-c3ccc(O)c(OC)c3)c(C)c2c1 |  | MIC |  | resazurin / absorbance | Clinical isolate 27 | 3.9 µg/mL
CCOC(=O)c1ccc(C(=O)OC)c(S(=O)(=O)NC(=O)Nc2nccc(C)n2)c1 |  | MIC |  |  | H37Rv | >80 µg/mL
O=C(c1ccc(NCc2ccco2)cc1)C1CC1c1ccc(Cl)cc1 |  | MIC |  | broth dilution / agar | H37Rv | >12.5 µg/mL
COc1cccc(/C=C/C(=O)c2ccccc2)c1O |  | MIC bound |  | BACTEC | H37Rv | >12.5 µg/mL
CON=C1CN(c2nc(=O)c3cc(C(F)(F)F)cc([N+](=O)[O-])c3s2)C1 |  | MIC90 |  | resazurin | H37Rv | 0.03 µg/mL
O=C(/N=C/c1ccccc1O)NCCCN1c2ccccc2Sc2ccccc21 | 25 µg/mL | inhibition |  | agar | H37Rv | 32%
COC(=O)c1ccc(NC(=O)C(Cl)(Cl)Cl)cc1S(=O)(=O)NC(=O)Nc1nccc(OC)n1 |  | MIC |  |  | H37Rv | >80 µg/mL
Cc1cn2c(C(=O)NCc3ccc(N4CCC5(CC4)OCC(C)CO5)cc3)c(C)nc2s1 |  | MIC |  | resazurin / fluorescence | H37Rv | 0.621 µM
NC(=O)c1cnccn1 |  | MIC |  |  | H37Rv | 8 µg/mL
COc1cccc(/C=N/C(=O)NCCCN2c3ccccc3Sc3ccccc32)c1 | 50 µg/mL | inhibition |  | agar | H37Rv | 42%
C=C1C(=O)O[C@@H]2/C=C(/C)[C@@H](OC(C)=O)C[C@H](O)/C(C)=C\[C@@H](OC(=O)/C(C)=C\C)[C@H]12 |  | MIC bound |  | BACTEC | H37Rv | >12.8 µg/mL
CN(C)c1ccc(C(=O)C2CC2c2ccc(Cl)cc2)cc1 |  | MIC |  | broth dilution / agar | H37Rv | >12.5 µg/mL
Cc1cccc(NC(=O)c2cnc(C(C)(C)C)cn2)c1Br |  | MIC |  |  | H37Rv | 32 µg/mL
O=C(/N=C/c1ccccc1)NCCCN1c2ccccc2Sc2ccccc21 | 50 µg/mL | inhibition |  | agar | H37Rv | 22%
COC(=O)c1ccc(Br)c(S(=O)(=O)NC(=O)Nc2nccc(OC)n2)c1 |  | MIC |  |  | H37Rv | >80 µg/mL
CCCCCOc1ccccc1NC(=O)OCC[N+]1(CCC)CCCCC1 |  | MIC |  |  | My 331/88 | 250 µM
COc1ccc(C2COc3cc(O)c(O)cc3C2)cc1 |  | MIC |  | BACTEC | H37Rv | ≥12.5 µg/mL
CONc1ncnc2c1n(C/C=C(\C)CC/C=C(\C)CCC1CCCCC1)c[n+]2C |  | MIC |  |  |  | 1.56 µg/mL
O=C(Nc1cc(Cl)cc(Cl)c1)C1(c2cccs2)CCOCC1 |  | EC50 |  | turbidity | CDC1551 | 200 µM
COc1cc2nc(Sc3c([N+](=O)[O-])ncn3C)[nH]c2cc1OC |  | MIC bound |  |  | H37Rv | >6.25 µg/mL
COc1cc2nc3n(c(=O)c2cc1OC)-c1ccccc1C3=O |  | MIC |  |  | H37Rv | >10 µg/mL
CN1CCN(c2ccc(C(=O)C3CC3c3ccc(Cl)cc3)cc2)CC1 |  | MIC |  | broth dilution / agar | H37Rv | 3.25 µg/mL
COc1ccc2c3c1OC1C=CC(OC(C)=O)C4C(C2)N(C)CCC314 | 12.5 µg/mL | inhibition |  | BACTEC | H37Rv | -15%
Nc1cc(O)c(C(=O)O)cc1F |  | MIC90 |  | resazurin | Erdman | 12.5 µg/mL
CN(C)c1ccc(C2CC(c3ccccc3)=NN2C(=O)c2ccc(O)cc2)cc1 |  | MIC |  | MTT | H37Ra | 65 µM
CCOC(=O)/C(C#N)=N/Nc1ccc(C(=O)OCC)c(S(=O)(=O)NC(=O)Nc2nccc(C)n2)c1 |  | MIC |  |  | H37Rv | >80 µg/mL
S=C(S)NNc1ccccc1 |  | MIC |  |  | KM-R | >12.5 µg/mL
O=C(Nc1ccc(C(F)(F)F)cc1)C1(c2cccs2)CCOCC1 |  | EC50 |  | turbidity | CDC1551 | 9.7 µM
CCCCCCC[N+]1(CCOC(=O)Nc2ccccc2OCCCCCC)CCCCC1 |  | MIC |  |  | My 331/88 | 16 µM
Cc1cn2c(C(=O)NCc3ccc(N4CCN(c5ccc(C(F)(F)F)cn5)CC4)c(F)c3)c(C)nc2s1 |  | MIC |  | luminescence | H37Rv | 28.8 µM
CCSN(SCC)C(=S)c1ncnc(NC2CC2)c1[N+](=O)[O-] |  | MIC |  |  |  | 20.8 µg/mL
S=C(Nc1ccccc1)N1N=C(c2ccccc2)CC1c1ccccc1Cl |  | MBC |  | visual reading | H37Ra | >511 µg/mL
S=C(Nc1ccccc1)c1ccccn1 |  | MIC bound |  | resazurin | H37Rv | <6.25 µg/mL
CCCCCOc1ccccc1NC(=O)OCC[N+]1(CC)CCCCC1 |  | MIC |  |  | My 331/88 | 500 µM
O=C1c2c(Cl)cccc2-n2c1nc1ccccc1c2=O |  | MIC |  |  | H37Rv | 1 µg/mL
O=C1C2=C(c3ccccc31)C(c1ccc([N+](=O)[O-])cc1)NC(=S)N2 |  | MIC bound |  | BACTEC | H37Rv | ≤12.5 µg/mL
CCc1ccc(NC(=O)C2(c3cccs3)CCOCC2)cc1 |  | EC50 |  | turbidity | CDC1551 | 10 µM
CC(C)(C)c1cnc(C(=O)Nc2ccc(C(F)(F)F)cc2)cn1 |  | MIC |  |  | H37Rv | 8 µg/mL
Cc1cc(NC(=O)c2ccc(N)cc2)ccc1N=Nc1ccc(N=Nc2cc(S(=O)(=O)[O-])cc3cc(S(=O)(=O)[O-])cc(O)c23)c2ccccc12.[Na+].[Na+] |  | MIC bound |  | BACTEC | H37Rv | ≤128 µg/mL
Cc1ccccc1/C=N/C(=O)NCCCN1c2ccccc2Sc2ccccc21 | 25 µg/mL | inhibition |  | agar | H37Rv | 25%
CN(C)c1ccc(C2CC(c3ccccc3)=NN2C(=S)Nc2ccccc2)cc1 |  | MBC |  | visual reading | H37Ra | >500 µM
CCCCCCOc1ccccc1NC(=O)OCC[N+]1(CCCC)CCCCC1 |  | MIC |  |  | My 331/88 | 16 µM
O=C(c1ccc(N2CCCC2)cc1)C1CC1c1ccc(Cl)cc1 |  | MIC |  | broth dilution / agar | H37Rv | >12.5 µg/mL
ClCCCN1c2ccccc2Sc2ccccc21 | 25 µg/mL | inhibition |  | agar | H37Rv | 13%
O=C1CC[C@H](O)c2ccccc21 |  | MIC |  |  | 90-221387 | 6.25 µg/mL
O=C(/N=C/c1ccc([N+](=O)[O-])cc1)NCCCN1c2ccccc2Sc2ccccc21 | 50 µg/mL | inhibition |  | agar | H37Rv | 55%
S=C(Nc1ccccc1)N1N=C(c2ccccc2)CC1c1ccc(Cl)cc1 |  | MBC |  | visual reading | H37Ra | >511 µM
CN1CCN(c2cc3c(cc2F)C(=O)c2nc4ccccc4c(=O)n2-3)CC1 |  | MIC |  |  | MDR 10038 | 10 µg/mL
O=C1CNC(=O)CN1 |  | MIC bound |  | BACTEC | H37Rv | >12.5 µg/mL
CON=C1CCN(c2nc(=O)c3cc(C(F)(F)F)cc([N+](=O)[O-])c3s2)CC1 |  | MIC90 |  | resazurin | 16892 clinical isolate | 0.016 µg/mL
CCCCCC[N+]1(CCOC(=O)Nc2ccccc2OCCCCC)CCCCC1 |  | MIC |  |  | My 331/88 | 32 µM
CCCCC(=O)N/N=C/c1c(O)cc(OC)cc1OC |  | MIC bound |  | BACTEC | H37Rv | >12.5 µg/mL
COC(=O)c1ccc(NC(=O)C(Cl)(Cl)Cl)cc1S(=O)(=O)NC(=O)Nc1nccc(C)n1 |  | MIC |  |  | H37Rv | 80 µg/mL
Nc1ccc(C(=O)O)c(O)c1 |  | EC50 |  | agar | 592 strains | <2 µg/mL
C=C1CCCC(C)(C)[C@@H]1CC/C(C)=C/CC/C(C)=C/CO |  | EC50 |  |  |  | >6.25 µg/mL
CCON=C1CCN(c2nc(=O)c3cc(C(F)(F)F)cc([N+](=O)[O-])c3s2)CC1 |  | MIC90 |  | resazurin | H37Rv | 0.232 µg/mL
CCCCCCCCCCCC[N+]1(CCOC(=O)Nc2ccccc2OCCCCCC)CCCCC1 |  | MIC |  |  | My 331/88 | 8 µM
O=c1nc2c(ncn2Cc2ccccc2)c(-c2ccccc2)n1Cc1ccccc1 |  | EC50 |  |  | H37Rv | >12.5 µg/mL
O=C(Nc1ccc(F)cc1)C1(c2cccs2)CCOCC1 |  | EC50 |  | turbidity | CDC1551 | 67 µM
O=c1c2ccccc2nc2[nH][nH]c(=S)n12 | 6.25 µg/mL | inhibition |  | resazurin | H37Rv | -10%
CCc1cc(C(N)=S)ccn1 |  | EC50 |  | agar | 25 strains | <10 µg/mL
CO[C@H]1/C=C/O[C@@]2(C)Oc3c(C)c(O)c4c(O)c(c5c(c4c3C2=O)NC2(CCN(CC(C)C)CC2)N=5)=NC(=O)/C(C)=C\C=C\[C@H](C)[C@H](O)[C@@H](C)[C@@H](O)[C@@H](C)[C@H](OC(C)=O)[C@@H]1C |  | MIC |  |  | 1 isolates (His526Cys) | 0.0625 µg/mL
N[C@@H]1CONC1=O | 30 µg/mL | inhibition |  | agar | 592 strains | 96%
NNC(=O)c1ccncc1 |  | MIC |  | MTT | H37Ra | 5 µM

The first 7 rows once more:

smiles	dose	measure	mutations	method	strain	value
CNn1cc(C(=O)O)c(=O)c2cc(F)c(N3CCN(C)CC3)cc21		MIC90			19 strains	12.5 µg/mL
O=C1OC2C3C=CC(O3)C2O1	12.5 µg/mL	inhibition		BACTEC	H37Rv	0%
COC(=O)c1ccc(Br)cc1S(=O)(=O)NC(=O)Nc1nccc(C)n1		MIC			H37Rv	40 µg/mL
OO		EC50			H19	>0.0005 µM
CSc1ccccc1NC(=O)C1(c2cccs2)CCOCC1		EC50		turbidity	CDC1551	200 µM
CCN(CC)CCNc1cc2c(c3c(=O)c4ccccc4sc13)CCCC2		MIC			H37Rv	6.25 µg/mL
Cc1ccc2nc3n(c(=O)c2c1)-c1ccccc1C3=O		MIC			H37Rv	1 µg/mL